Measured values from several laboratories, pooled; numbers as filed in NIAID ChemDB.

All rows: cytotoxicity tests; read-out: CC50

Lines come from different laboratories, so protocols vary.

structure | cell line | read by | result
COc1cnc(-c2cnc(NC(C)=O)s2)c2[nH]cc(C(=O)C(=O)N3CCN(C(=O)c4ccccc4)CC3)c12 | HeLa | trypan blue | >100 µM
C[C@@H]1C[C@@H](O)c2c(O[C@H]3O[C@H](CO)[C@@H](O)[C@H]3O)cccc2O1 | HL-60 | MTT | >40 µg/mL
Clc1nnnc2c1C1=C(CCC/C1=C\c1ccncc1)C(c1ccncc1)S2 | MCF-7 | MTT | 13.1 µM
CNC(=O)c1ncn(-c2ncc(OC)c3c(C(=O)C(=O)N4CCN(C(=O)c5ccccc5)CC4)c[nH]c23)n1 | HeLa | trypan blue | >100 µM
Nc1c2c(nc(=O)n1-c1ccccc1)SC(c1ccncc1)C1=C2/C(=C/c2ccncc2)CCC1 | MCF-7 | MTT | 14.8 µM
Nc1nc(Cl)cc(NCC2(CO)CCCC2)n1 | MDCK |  | 5.5–39 µM
CCOC(=O)c1c(O)c2cc(C(=O)NCc3ccccc3OC)cnc2n(O)c1=O | HeLa |  | <100 µM
COc1cnc(-n2ccnc2)c2[nH]cc(C(=O)C(=O)N3CCN(C(=O)c4ccccc4)CC3)c12 | HeLa | trypan blue | ≤100 µM
Nc1ncc(/C=N/O)c(NCC2(CO)CC(CCc3ccccc3)C2)n1 | MDCK |  | 1.1–2.8 µM
O=C1N=C(N2CCOCC2)S/C1=C\c1ccc(-c2ccc(C(=O)O)c(O)c2)o1 | HT-29 | MTT | 2.3 µM
O=C(C(=O)N1CCN(C(=O)c2ccccc2)CC1)c1c[nH]c2c(-n3ccnn3)ccnc12 | HeLa | trypan blue | >100 µM
N=c1c2c(ncn1Nc1ccccc1)SC(c1ccncc1)C1=C2/C(=C/c2ccncc2)CCC1 | MCF-7 | MTT | 12.8 µM
Nc1nc(Cl)c2ncn(C=C3C[C@H]3CO)c2n1 | H-1 |  | >50 µM
O=C1NC(=Nc2ccccc2O)S/C1=C/c1ccc(O)c(O)c1 | HOS |  | 34 µM
Nc1nc(N)c2nc(CNc3ccc(C(=O)NC(CCP(=O)(O)O)C(=O)O)cc3)cnc2n1 | L1210/R81 |  | 240 µM
Cc1cn([C@H]2C[C@H](N=[N+]=[N-])[C@@H](CO)O2)c(=O)[nH]c1=O | MAGI | MTT | >100 µg/mL
Cc1nc(-c2ncc(F)c3c(C(=O)C(=O)N4CCN(C(=O)c5ccccc5)CC4)c[nH]c23)no1 | HeLa | trypan blue | >100 µM
O=c1sc2nc3c(c(=S)n2/c1=C/c1ccc(Cl)cc1)C1=C(CCC/C1=C\c1ccncc1)C(c1ccncc1)S3 | CNE-2 | MTT | 35.3 µM
COc1cnc(-n2cccn2)c2[nH]cc(C(=O)C(=O)N3CCN(C(=O)c4ccccc4)CC3)c12 | HeLa | trypan blue | >100 µM
C[C@H]1[C@H](O)[C@@H](C)/C=C/C=C/C=C/C=C/C=C/C=C/C=C/[C@H](O[C@@H]2O[C@H](C)[C@@H](O)[C@H](N)[C@@H]2O)C[C@@H]2O[C@](O)(C[C@@H](O)C[C@@H](O)CC[C@H](O)[C@@H](O)C[C@@H](O)CC(=O)O[C@H]1C)C[C@H](O)[C@H]2C(=O)O | CEM(12D-7) | MTT | >10 µM
CCOC(=O)c1c(O)c2cc(-c3cccc(CN4CCOCC4)c3)cnc2n(O)c1=O | HeLa |  | 0.1 µM
O=C(c1c[nH]c2ccccc12)[C@H](O)CO | SMMC-7721 | MTT | >40 µg/mL
CCO/C=N\C1=C(C#N)C2=C(CCC/C2=C\c2ccncc2)C(c2ccncc2)S1 | MGC-803 | MTT | >50 µM
COc1cc(OC)c2c(=O)c3ccccc3n(C)c2c1 | OM-10.1 |  | 8 µg/mL
CO/C=C(/C(=O)OC)[C@H](C)C(=O)/C=C/c1ccccc1 | HeLa S3 |  | 25 µg/mL
COc1cccc2c1c(=O)c1ccccc1n2C | OM-10.1 |  | 13 µg/mL
Nc1nccc(NCC2(CO)CC(CCc3ccccc3)C2)n1 | MDCK |  | 11–18 µM
COc1cnc(-n2cnc(C)n2)c2[nH]cc(C(=O)C(=O)N3CCN(C(=O)c4ccccc4)[C@H](C)C3)c12 | HeLa | trypan blue | >100 µM
CCOC(=O)c1c(O)c2cc(C(=O)NCc3cccc(OC)c3)cnc2n(O)c1=O | HeLa |  | <100 µM
N#CC1=C(N)SC(c2ccncc2)C2=C1/C(=C/c1ccncc1)CCC2 | MGC-803 | MTT | >50 µM
Cc1c[nH]c2c1C(c1ccc(O)c(O)c1)C(C#N)=C(N)O2 | HOS |  | 50 µM
CCO/C(C)=N\C1=C(C#N)C2=C(CCC/C2=C\c2ccncc2)C(c2ccncc2)S1 | MCF-7 | MTT | 47.2 µM
COc1cnc(C(N)=O)c2[nH]cc(C(=O)C(=O)N3CCN(C(=O)c4ccccc4)[C@H](C)C3)c12 | HeLa | trypan blue | >100 µM
N#Cc1ccc2c(c1)CN(c1cc(=O)n(O)c3ncccc13)CC2 | HeLa |  | <100 µM
Cc1ccc(-n2cc(Cn3nc(-c4ccccc4)c4c3CCN(C(=O)Nc3ccccc3)C4)nn2)cc1 | RAW 264.7 | MTT | 335 µM
Cc1cc(C=O)cc(C)c1Oc1cc(Nc2ccc(C#N)cc2)nc2ccccc12 | H69AR | MTT | 27.6 µM
CCC(C)CC(C)/C=C(C)/C=C/C=C/C(O)=C1\C(=O)NC(C(O)c2ccc(O)cc2)C1=O | A549 human lung carcinoma cells | MTT | >120 µM
Nc1nc(N)c2nc(CNc3ccc(C(=O)NC(CCCP(=O)(O)O)C(=O)O)cc3)cnc2n1 | L1210/R81 |  | >460 µM
CO/C=C(/C(=O)OC)[C@H](C)[C@@H](O)/C=C/c1ccccc1 | HL-60 |  | >100 µg/mL
O=S(=O)(c1cccc2cnccc12)N1CCNCC1 | OM-10.1 |  | 11.5 µg/mL
O=C1/C(=C/c2ccc(-c3cc(C(F)(F)F)ccc3Cl)o2)SC(=S)N1Cc1ccc(F)cc1 | BAE | MTT | 2.2 µM
Nc1nc(Cl)c2ncn(/C=C3/C[C@H]3CO)c2n1 | MEF | visual reading | 270 µM
Cn1c2ccccc2c(=O)c2ccccc21 | OM-10.1 |  | 16 µg/mL
O=C(O)c1ccc(-c2ccc(/C=C3\SC(=S)N(CCc4ccc(Cl)c(Cl)c4)C3=O)o2)cc1O | Ramos | MTT | >100 µM
CCc1ccc(-n2cc(Cn3nc(-c4ccccc4)c4c3CCN(C(=O)Nc3ccccc3)C4)nn2)cc1 | RAW 264.7 | MTT | 370 µM
O=c1sc2nc3c(c(=S)n2/c1=C/c1ccccc1)C1=C(CCC/C1=C\c1ccncc1)C(c1ccncc1)S3 | CNE-2 | MTT | 39.3 µM
NCc1ccc(-c2cccc(Cc3cc(=O)n(O)c4ncccc34)c2)cc1 | HeLa |  | <100 µM
Cn1c2ccccc2c(=O)c2c(O)c(O)ccc21 | OM-10.1 |  | 7.8 µg/mL
Nc1nc(Cl)c(C=O)c(NCC2(CO)CC(CCc3ccccc3)C2)n1 | MDCK |  | 9.6–12 µM

Repeating the first 4 entries:

| structure | cell line | read by | result |
|---|---|---|---|
| COc1cnc(-c2cnc(NC(C)=O)s2)c2[nH]cc(C(=O)C(=O)N3CCN(C(=O)c4ccccc4)CC3)c12 | HeLa | trypan blue | >100 µM |
| C[C@@H]1C[C@@H](O)c2c(O[C@H]3O[C@H](CO)[C@@H](O)[C@H]3O)cccc2O1 | HL-60 | MTT | >40 µg/mL |
| Clc1nnnc2c1C1=C(CCC/C1=C\c1ccncc1)C(c1ccncc1)S2 | MCF-7 | MTT | 13.1 µM |
| CNC(=O)c1ncn(-c2ncc(OC)c3c(C(=O)C(=O)N4CCN(C(=O)c5ccccc5)CC4)c[nH]c23)n1 | HeLa | trypan blue | >100 µM |

Two numbers with a dash give a range or band. CCn: concentration that lowers growth or viability of the cells by n%. Blank or dashed fields: not listed here.